Where no end group is shown, it is not given here. [ ]: non-standard residue; d: D form. The star is where a group is joined. Cha = N[C@@H](CC1CCCCC1)C(=O)O; Boc = CC(C)(C)OC(=O)*

One data set in a line: general procedure: Boc solid-phase peptide synthesis; BHA; DCC/HOBt. As to conditions: whole synthesis, scale 0.4 mmol.
“2-(seryl glutaminylasparaginyl)amino-3-phenylpropyl-prolylvalyl valinamide” yielded a crude mass of 192.5 mg.

The same data set, now with this note: whole synthesis, scale 0.5 mmol.
Boc-SQNYPEV-NH2 returned a crude mass of 216 mg.
Still for that read-out and setting: the result for [dS]QNYPVV-NH2 reads 271 mg.
Still for that read-out and setting: in the case of Ac-SQN[Cha]PVV-NH2 it was 280 mg; in that of Ac-AQGYPVV-NH2, 275 mg.
On the same count and under the same terms, in the case of Ac-Tyr-Pro-Val-Val-NH₂ it was 98.7 mg; in that of Ac-[dS]GNYPVV-NH2, 248 mg; in that of Ac-DQNYPVR-NH2, 404 mg.
As for Ac-SQNYPEV-NH2, the crude mass was 184 mg.
On the same count and under the same terms, the result for SQN[Cha]PVV-NH2 reads 316 mg; that for ANYPVV-NH2, 136.6 mg; that for Ac-SQGYPKV-NH2, 280 mg.
Take Asn-Tyr-Pro-Val-Val-NH₂: the crude mass is on record as 145 mg.
On the same count and under the same terms, the result for Ac-SQNYPGV-NH2 reads 153 mg.
Still for that read-out and setting: in the case of SQNYPAV-NH2 it was 202 mg.

Staying with this data set, now noted: whole synthesis, scale 1.0 mmol.
Consider Ac-RKILFLDG-NH2, for which the crude mass is reported as 520 mg.
The same measure, in the same setting: the result for Ac-RASQNYP-NH2 reads 621 mg.
Still for that read-out and setting: in the case of Ac-SQNFPVV-NH2 it was 573 mg.
The same measure, in the same setting: in the case of DQNYPVV-NH2 it was 671 mg; in that of “Ac-Arg-Lys-Ile-Leu-(4′NO₂)Phe-Leu-Asp-Gly-NH₂”, 980 mg.
Substance Ac-Ser-Gln-Asn-Tyr-Pro-NH₂ had a crude mass of 400 mg.

Staying with this data set, now noted: whole synthesis, scale 1.0 mmol (half of resin used).
Regarding “2-(acetyl seryl glutaminyl asparaginyl)amino-3-phenyl-propyl-prolylvalylvalinamide”, the crude mass turned out to be 150 mg.

The data set is the same for the next values; noted with them: whole synthesis, scale 1 mm.
The substance “4-(serylglutaminylasparaginyl)amino-3(R)-hydroxy-1-oxo-5-phenylpentyl-valyl valinamide” registered a crude mass of 85 mg.

A further data set is described as follows: general procedure: Boc solid-phase peptide synthesis; Merrifield resin; DCC/HOBt. The settings on record: whole synthesis, scale 0.5 mmol.
In turn, SQNYPVV yielded a crude mass of 248.8 mg.

The same data set, now with this note: whole synthesis, scale 1.0 mmol.
Ac-Ser-Gln-Asn-Tyr-Pro had a crude mass of 458.5 mg.

Another data set in a line: general procedure: Boc solid-phase peptide synthesis; benzhydrylamine resin (BHA); DCC/HOBt. As to conditions: coupling step.
“trans-2-((1-methoxy-1-(2-phenyl-1-(tert-butyloxycarbonyl-(O-phenylmethyl)serylalanylalanyl)amino)ethyl)phosphinyl)cyclopentyl-carbonyl-valyl valine methyl ester” had a step yield of 65% yield.
Substance “(4S,5S)-5-(carbobenzyloxyalanylalanyl)amino-6-(4-benzyloxy)phenyl-4-hydroxy-(1-oxo)hexyl-valyl valine methyl ester” showed a step yield of 77%.
On the same count and under the same terms, the result for “(1S,2S)-2-(((1R,2S)-2-(tert-butyloxycarbonyl-L-(O-phenylmethyl)serylalanylalanyl)amino-1-hydroxy-3-phenyl)propyl)cyclopentylcarbonyl-valyl valine methyl ester” reads 67% yield.
Still for that read-out and setting: the result for “(3R,4S)-4-(tert-butyloxycarbonyl-(O-benzyl)serylalanylalanyl)amino-2,2-difluoro-3-hydroxy-1-oxo-5-phenylpentylvalyl valine methyl ester” reads 83%; that for “(4S,5S) 5-((carbobenzyloxy-β-alanyl)alanyl)amino-4-hydroxy-1-oxo-6-(4-hydroxyphenyl)hexyl-valyl valine methyl ester”, 20%.
Still for that read-out and setting: the result for “(4S,5S) 5-(tert-butyloxycarbonylalanyl)amino-4-hydroxy-1-oxo-6-(4-hydroxyphenyl)hexyl-valyl valine methyl ester” reads 55%; that for “(1S,2S)-2-(((1S,2S)-2-(tert-butyloxycarbonyl-L-(O-phenylmethylene)serylalanylalanyl)amino-1-hydroxy-3-phenyl)propyl)cyclopentylcarbonyl-valyl valine methyl ester”, 65% yield.

Still in this data set, the particulars now being: late stage modification step.
Regarding “trans-2-((1-methoxy-1-(2-phenyl-1-(tert-butyloxycarbonylserylalanylalanyl)amino)ethyl)phosphinyl)cyclopentylcarbonylvalyl valine methyl ester”, the step yield is 93% yield.
Same read-out and setting: the result for “4-(tert-butyloxycarbonyl-(O-benzyl)serylalanylalanyl)amino-2,2-difluoro-1,3-dioxo-5-phenylpentyl-valyl valine methyl ester” reads 69% yield.
Same read-out and setting: in the case of “(1S,2S)-2-(((1R,2S)-2-(tert-butyloxycarbonylserylalanylalanyl)amino-1-hydroxy-3-phenyl)propyl)cyclopentylcarbonyl-L-valyl-L-valine methyl ester” it was 90% yield.
On the same count and under the same terms, the result for “(3R,4S)-4-(tert-butyloxycarbonyl-serylalanylalanyl)amino-2,2-difluoro-3-hydroxy-1-oxo-5-phenylpentyl-valyl-L-valine methyl ester” reads 99%.
Turning to “(4S,5S) 5-(tert-butyloxycarbonylalanyl)amino-4-hydroxy-1-oxo-6-(4-hydroxyphenyl)hexyl-valyl valine methyl ester”, the step yield is listed as 70%.

The same data set, now with this note: purification step.
Turning to ASQNYPVV-NH2, the step yield is recorded as 75.5%.
In the case of Ac-DQNYPVV-NH2, the step yield was 81.2%.
Still for that read-out and setting: in the case of SQNYPVV-NH2 it was 83.5%.

Still in this data set, the particulars now being: whole synthesis.
Turning to “2-(seryl glutaminylasparaginyl)amino-3-phenylpropyl-prolylvalyl valinamide”, the crude yield is on record as 62%.
On the same count and under the same terms, the result for Ac-SENYPVV-NH2 reads 67% yield.
On the same count and under the same terms, in the case of Ac-SQDYPVV-NH2 it was 80% yield; in that of ASQNYPVV-NH2, 56.0%; in that of “2-(acetyl seryl glutaminyl asparaginyl)amino-3-phenyl-propyl-prolylvalylvalinamide”, 37%.
The same measure, in the same setting: in the case of Ac-DQNYPVV-NH2 it was 65.9%.
SQNYPVV-NH2 gave a crude yield of 55.9%.
As for Ac-SQSYPVV-NH2, the crude yield worked out at 70% yield.

Staying with this data set, now noted: whole synthesis, scale 0.5 mmol.
For the substance Ac-AQGYPVV-NH2, the isolated mass was 235 mg.
Same read-out and setting: the result for ANYPVV-NH2 reads 116.7 mg.
Take Ac-Ser-Gln-Asn-Tyr-Δ3-Pro-Val-Val-NH₂: the crude mass stood at 250 mg.

The same data set, now with this note: whole synthesis, scale 1 mmol.
Substance Ac-ATLNFPISPIE-NH2 returned a crude mass of 862.3 mg.

Staying with this data set, now noted: whole synthesis, scale 1 mm.
Substance “4-(serylglutaminylasparaginyl)amino-3(S)-hydroxy-1-oxo-5-phenylpentyl-valyl valinamide” gave an isolated mass of 12 mg.

The record behind these values is patent EP0352000A2 (SMITHKLINE BECKMAN CORPORATION, priority 1988, dated 1990).
